According to the supplement of paper PMC9931576:
Human monoclonal antibodies against the spike receptor-binding domain (heavy:light variable regions). IC50 against pseudoviruses bearing the spike of naturally observed variants; lower = stronger; >10 µg/ml means not reached at the top dose. No active / inactive call. The stated detection limit is 0.0005 µg/ml; values near or below 0.001 µg/ml lie at the floor of the assay.

B1: BD-713 (protein)
chain 1: EVQLVESGGGLVQPGRSLRLSCAASGFTFDDYAMHWVRQAPGKGLEWVSGMSWNSGTIGYADSVKGRFTIIRDNAKNSLYLQMIRLRAEDTALYYCAKASPRLDTAMAPFDYWGQGTLVTVSS
chain 2: SYVLTQPPSVSVAPGKTARITCGGNNIGSKSVHWYQQKPGQAPALVIYYDNDRPSGLPERFSGSNSGNTATLTISRVEAGDEADYYCQVWHSSSDSLVFGGGTKLTVL
B2: BD55-833 (protein)
chain 1: EVQLVQSGAEVKKPGESLRISCKGSGYSFISYWISWVRQMPGKGLEWMGRIDPSDSYTNYSPSFQGHVTISADKSISTAYLQWSSLKASDTAIYYCARQSYGDYSDFDYWGQGTLVTVSS
chain 2: EIVLTQSPGTLSLSPGERATLSCRASQSVSSSYLAWYQQKPGQAPRLLISGASSRATDIPDRFSGSGSGTDFTLTISRLEPEDFAVYYCQQYYSSPPTFGQGTKVEIK
B3: BD55-847 (protein)
chain 1: QVQLQESGPGLVKPSETLSLTCTVSGGSISDYYWNWIRQPPGKGLEWIGYVYYSGGTNYIPSLRSRVTISVDTSKNHFSLKLTSVTAADTAIYFCARADAGVLDGFDIWGQGTTVTVSS
chain 2: DIQVTQSPSSLSASVGDRVTITCRASQTITTYFNWYQQRPGKAPKLLIYAASSLQSGVPSRFSGSGSGTDFTLTISGLQPEDFATYYCQQSYTTPWTFGQGTKVELK
B4: BD55-852 (protein)
chain 1: QVQLVQSGAEVKKPGSSVKVSCKASGGTFSSHAITWVRQAPGHGLEWMGRIIPILGLTNYAQKFQGRVTITADKSTGTAYMELSSLRSEDTAMYYCARDWRPLMTDYEGQRPTFDCWGQGTLVTVSS
chain 2: DIVMTQTPLSLSVTPGQPASISCKSSQSLLHSDGKTYLYWYLQKPGQPPQLLIYEVFNRFSGVPDRFSGSGSGTDFTLKISRVEAEDVGVYYCMQSIQLPLLTFGGGTKVEIK
B5: BD55-854 (protein)
chain 1: QVQLVQSGAEVKKPGASVKVSCKVSGYTLTELSIHWVRQAPGKGLEWMGGFDHERGETIYAQKFQGRVTMTEDTSTDTAYVELSSLRSEDTAVYYCATGGITMIRGIFYWGQGTLVTVSS
chain 2: QSVLTQPPSVSGAPGQRVTISCTGSSSNIGAGYDVHWYQQLPGTAPKLLIFGYTNRPSGVPARFSDSKSGTSASLAITGLQAEDEADYYCQSYDRSLSGVVFGGGTKLTVL
B6: BD55-868 (protein)
chain 1: QVQLVQSGAEVKKPGASVKVSCKASGYTFTNYYIHWVRQAPGQGLEWMGIINPSGGSISYAQKFQGRVTMTRDTSTSTVYMELSSLRSEDTAVYYCARDIVLIPASSSFDPWGQGTLVTVSS
chain 2: EIVLTQSPATLSLSPGERATLSCRASQSVSSYLAWYQQRPGQAPRLLIYDASNRATGIPVRFSGSGSGTDFTLTISSLEPEDFAVYYCQQRNNWPRMYTFGQGTKLEIK

Assays:
Assay in all cases: pseudovirus neutralization IC50; higher = weaker neutralization
[1] = molecular target: SARS-CoV-2 Omicron BA.1 spike pseudovirus
Procedure: (§1)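 Single-round VSV luciferase pseudovirus mixed with antibody dilutions for 1 h and put on Huh-7 cells for about a day; IC50 from the dose curve.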

[2] = molecular target: SARS-CoV-2 Omicron BA.2 spike pseudovirus
Procedure: as §1

[3] = molecular target: SARS-CoV-2 Omicron BA.2.75 spike pseudovirus
Procedure: as §1

[4] = molecular target: SARS-CoV-2 Omicron BA.5 spike pseudovirus
Procedure: as §1

[5] = molecular target: SARS-CoV-2 Omicron BQ.1.1 spike pseudovirus
Procedure: as §1

[6] = molecular target: SARS-CoV-2 Omicron XBB spike pseudovirus
Procedure: as §1

[7] = molecular target: SARS-CoV-2 early D614G spike pseudovirus
Procedure: as §1

Row | Binder | pseudovirus neutralization IC50 [1] [µg/mL] | pseudovirus neutralization IC50 [2] [µg/mL] | pseudovirus neutralization IC50 [3] [µg/mL] | pseudovirus neutralization IC50 [4] [µg/mL] | pseudovirus neutralization IC50 [5] [µg/mL] | pseudovirus neutralization IC50 [6] [µg/mL] | pseudovirus neutralization IC50 [7] [µg/mL]
1 | B1 | 0.125 | 0.123 | 0.146 | 0.963 | > 10 | > 10 | 0.104
2 | B2 | > 10 | > 10 | > 10 | > 10 | > 10 | > 10 | > 10
3 | B3 | > 10 | > 10 | > 10 | > 10 | > 10 | > 10 | > 10
4 | B4 | > 10 | > 10 | > 10 | > 10 | > 10 | > 10 | > 10
5 | B5 | > 10 | > 10 | > 10 | > 10 | > 10 | > 10 | 0.001
6 | B6 | > 10 | > 10 | > 10 | > 10 | > 10 | > 10 | > 10
